Pooled drug test results. Numbers come from NIAID ChemDB, via PubChem.

Common to all: tests in culture; organism: Mycobacterium tuberculosis

MIC bound: limit read from a one-dose screen.

structure,strain or isolate,changes,cells,read by,setting,read-out,dose,value
CCOC(=O)/C(N=Nc1ccc(-c2n[nH]c(=S)n2CC)cc1)=C(\C)O,H37Rv,,,,,EC50,,>12.5 µg/mL
S=c1oc2ccc(Br)cc2c(=S)n1-c1cccc(Cl)c1,My 331/88,,,,21 d,MIC,,1 µM
CO[C@@]1(NC(=O)Cc2cccs2)C(=O)N2C(C(=O)O)=C(COC(N)=O)CS[C@@H]21,Isolate 5,,,,,MIC,,>16 µg/mL
NC(CC(=O)O)CC(=O)O,H37Rv,,,BACTEC,,inhibition,12.5 µg/mL,13%
O=C1NC(=Nc2ccc(Cl)cc2Cl)N/C1=C\c1ccccc1Cl,H37Rv,,,,,inhibition,12.5 µg/mL,37%
NNC(=O)c1nc(C2CCCC2)[nH]c1C1CCCC1,H37Rv,,,,,MIC,,>6.25 µg/mL
CCOC(=O)CC(NCc1ccccc1)c1cccc(Cl)c1,Sensitive strains,,,,,MIC,,12.5 µg/mL
NC(=O)c1cnccn1,Isolate 10347 monodrug-resistant,,,,,MIC,,>300 µg/mL
COc1ccc2oc(=S)n(-c3ccc(C(F)(F)F)cc3)c(=S)c2c1,My 331/88,,,,14 d,MIC,,16 µM
CC(C)CC(C)NCCNC[C@]1(C)CCC[C@]2(C)c3ccc(C(C)C)cc3CC[C@@H]12,,,,,,MIC,,25 µM
Fc1cccc(-n2c(=S)oc3ccc(Cl)cc3c2=S)c1,My 331/88,,,,21 d,MIC,,4 µM
CCCCCCCOc1c(C(C)=O)cc(N)c2nccc(CC)c12,H37Rv,,,,,inhibition,6.25 µg/mL,73%
COC(=O)/C=C/c1cnc[nH]1,H37Rv,,,,,MIC,,>6.25 µg/mL
CN[C@@H]1[C@H](O[C@H]2[C@H](O[C@H]3[C@H](O)[C@@H](O)[C@H](N=C(N)N)[C@@H](O)[C@@H]3N=C(N)N)O[C@@H](C)[C@]2(O)C=O)O[C@@H](CO)[C@H](O)[C@H]1O,MTB12 (PZA-R),,,,,MIC,,0.3 µg/mL
Nc1ccc(C(=O)N/N=C/c2ccc([N+](=O)[O-])cc2)cc1,H37Rv,,,,,EC50,,>12.5 µg/mL
COc1ccc(CN=C2NC(=O)/C(=C/c3c(Cl)cccc3Cl)N2)cc1,H37Rv,,,,,inhibition,12.5 µg/mL,0%
COc1ccc2oc(=O)n(-c3cccc(F)c3)c(=S)c2c1,My 331/88,,,,21 d,MIC,,32 µM
O=C(O)c1nn(Cc2ccc(Br)cc2Br)c2ccccc12,H37Rv,,,BACTEC,,MIC bound,,≤12.5 µg/mL
C[C@H]1COc2c(N3CCN(C)CC3)c(F)cc3c(=O)c(C(=O)O)cn1c23,CSU23,,,,,MIC,,0.25 µg/mL
Cn1cnnc1SCc1ccc(C(N)=S)cc1,My 331/88,,,,,MIC,,500 µM
CCOC(=O)Nc1cc(NC(c2ccccc2)c2ccccc2)c2nc(-c3cc(OC)c(OC)c(OC)c3)cnc2n1,H37Rv,,,,,EC50,,>12.5 µg/mL
C=C1C(=O)C23CC1CCC2C12CO[C@H](O)[C@H]1C(C)(C)[C@H](OC(C)=O)C[C@H]2OC3=O,H37Rv,,,BACTEC,,MIC bound,,>12.5 µg/mL
CCOC(=O)Nc1cc2nc(C)cnc2c(NC(=O)OCC)n1,H37Rv,,,,,EC50,,>12.5 µg/mL
Oc1cccc(CNCCCCCNCc2cccc(O)c2)c1,Sensitive strains,,,,,MIC,,6.25 µg/mL
C[C@@H](O)[C@H]1C(=O)N2C(C(=O)O)=C(SCCN=CN)C[C@H]12,H37Rv,,,,,MIC,,4 µg/mL
Nc1ccc(C(=O)N/N=C/c2ccc([N+](=O)[O-])o2)cc1,H37Rv,,,,,MIC,,>12.5 µg/mL
CC(NCCNCc1ccc(C(F)(F)F)cc1)c1cccc2ccccc12,,,,,,MIC,,12.5 µM
O=C(CCl)Nc1nc(=O)[nH]s1,H37Rv,,,BACTEC,,inhibition,12.5 µg/mL,6%
CCn1c(-c2ccc(N=Nc3c(C)[nH][nH]c3=O)cc2)n[nH]c1=S,H37Rv,,,,,EC50,,>12.5 µg/mL
CC(C)c1ccc2c(c1)CC[C@H]1[C@](C)(CNCCNCC3CCCO3)CCC[C@]21C,,,,,,MIC,,25 µM
Nc1ccc(C(=O)N/N=C/c2ccccc2)cc1,H37Rv,,,,,MIC,,>12.5 µg/mL
O=C1NC2C(NC(=O)N2Cl)N1Cl,H37Rv,,,BACTEC,,MIC bound,,>12.5 µg/mL
CCCCCCCCCCCCCCCCNCc1ccc(Cl)cc1,H37Ra,,,,,MIC,,<25 µg/mL
O=c1oc2ccc(Cl)cc2c(=S)n1-c1ccc(C(F)(F)F)cc1,My 331/88,,,,14 d,MIC,,4 µM
Cc1[nH]n(-c2ccccc2)c(=O)c1N=Nc1ccc(-c2n[nH]c(=S)n2-c2ccccc2)cc1,H37Rv,,,,,EC50,,>12.5 µg/mL
CCOC(=O)Nc1cc(NC(C)C(O)COc2ccccc2)c(N)c(N)n1,H37Rv,,VERO,,,EC50,,<12.5 µg/mL
Fc1cccc(CSc2ncn[nH]2)c1,My 331/88,,,,,MIC,,500 µM
S=c1n(-c2ccc(Cl)cc2)c2nc3ccccc3nc(/c2=N\Nc2cc(Cl)ccc2Cl)n1-c1ccccn1,H37Rv,,,BACTEC,,MIC bound,,>12.5 µg/mL
Fc1ccc(CSc2ncn[nH]2)cc1F,My 331/88,,,,,MIC,,1000 µM
CCOC(=O)Nc1cc(C[C@@H](C)[C@H](O)c2ccccc2)c(N)c(N)n1,H37Rv,,,,,EC50,,>12.5 µg/mL
COc1ccc(CNCCNCCc2ccc(Cl)cc2Cl)cc1OC,,,,,,MIC,,50 µM
CCCCCCCCCCCCNCc1ccccc1O,Sensitive strains,,,,,MIC,,6.25 µg/mL
O=C(Cc1cccs1)N[C@@H]1C(=O)N2C(C(=O)[O-])=C(C[n+]3ccccc3)CS[C@H]12,Isolate 4,,,,,MIC,,>16 µg/mL
Cc1ccc2oc(=S)n(-c3ccc(F)cc3)c(=S)c2c1,My 331/88,,,,14 d,MIC,,2 µM
Cc1cc(N(CCCl)CCCl)ccc1C=Nc1ccc(-c2csc(-c3ccccc3)n2)c(Cl)c1,H37Rv,,,BACTEC,,MIC bound,,>12.5 µg/mL
NNC(=O)c1ccncc1,Clinical isolate 71 A,INH RIF resistant,,resazurin,,MIC,,6.25 µg/mL
COc1ccccc1N=NC(C#N)C(N)=O,H37Rv,,,BACTEC,,inhibition,12.5 µg/mL,6%
CCc1ccnc2c([N+](=O)[O-])cc(C(C)=O)c(OC3CCCC3)c12,H37Rv,,,,,inhibition,6.25 µg/mL,0%
CC(=O)C1C(=O)C(=O)N(Cc2ccccc2)C1=O,H37Rv,,,resazurin,,inhibition,6.25 µg/mL,5%
O=C1NC(=NCc2ccc(Cl)cc2)N/C1=C\c1c(Cl)cccc1Cl,H37Rv,,,,,inhibition,12.5 µg/mL,0%
CC(=O)NS(=O)(=O)c1ccc(N=Nc2c(C)nn(C(=O)c3cccnc3)c2-c2ccccc2)cc1,H37Rv,,,resazurin,,MIC bound,,>6.25 µg/mL
CCCCOc1c(C(C)=O)cc(N)c2nccc(CC)c12,H37Rv,,,,,inhibition,6.25 µg/mL,0%
Cc1cc(N(CCC#N)CCC#N)ccc1/C=C1\N=C(c2ccccc2)N(N)C1=O,H37Rv,,,BACTEC,,inhibition,12.5 µg/mL,4%
CCCCCCCCNCc1ccncc1,Sensitive strains,,,,,MIC,,25 µg/mL
CC1=NN(C(=O)c2ccc(C)cc2)C(=O)C1N=Nc1ccccc1C(=O)O,H37Rv,,,BACTEC,,inhibition,12.5 µg/mL,0%
NNC(=O)c1ccncc1,MTB24 (S),,,,,MIC,,0.12 µg/mL
NNC(=O)c1ccncc1,CSU20,,,,,MIC,,≤0.125 µg/mL
CCOC(=O)Nc1cc(NCCc2ccc(S(N)(=O)=O)cc2)c2nccnc2n1,H37Rv,,,,,inhibition,12.5 µg/mL,0%
O=C(O)c1ccncc1,CF45,,,resazurin,,MIC,,>25 µg/mL
CCCCCCCCCCCCCCCCNCc1ccncc1,H37Ra,,,,,MIC,,<25 µg/mL
S=c1oc2ccc(Br)cc2c(=S)n1-c1ccc(Cl)c(Cl)c1,My 331/88,,,,21 d,MIC,,2 µM
O=C(O)[C@H]1/C(=C/CO)O[C@@H]2CC(=O)N21,Isolate 5,,,,,MIC,,>16 µg/mL
CCCCC(CC)CN1CN(CC(CC)CCCC)CC(C)(NCCNCCCc2ccccc2)C1,,,,,,MIC,,25 µM
O=C1NC(=Nc2ccccc2Cl)N/C1=C\c1ccc(Cl)cc1Cl,H37Rv,,,,,inhibition,12.5 µg/mL,13%
O=C(c1ccccc1)C1CSS(=O)(=O)C1c1ccccc1,H37Rv,,,BACTEC,,MIC bound,,>12.5 µg/mL
CC1CN(c2c(F)cc3c(=O)c(C(=O)O)cn(C4CC4)c3c2F)CCN1,CSU11,,,,,MIC,,0.25 µg/mL
COc1ccc(S(=O)(=O)N/N=C/c2cnc[nH]2)cc1,H37Rv,,,resazurin,,inhibition,6.25 µg/mL,-7%
CCCCCCCOc1c(C(C)=O)cc([N+](=O)[O-])c2nccc(CC)c12,Ethambutol-resistant,,,,,MIC,,6.25 µg/mL
CCOC(=O)c1nc(C2CCCCC2)[nH]c1C1CCCCC1,H37Rv,,,,,MIC,,>6.25 µg/mL
C=CCn1c(-c2ccc(N=Nc3c(C)[nH]n(CCO)c3=O)cc2)n[nH]c1=S,H37Rv,,,,,EC50,,>12.5 µg/mL
CN1CCN(C(=O)Cc2c[nH]c3ccccc23)CC1,H37Rv,,,BACTEC,,MIC bound,,>12.5 µg/mL
CCCCC(CC)CN1CN(CC(CC)CCCC)CC(C)(NCCNCCc2ccc(O)cc2)C1,,,,,,MIC,,25 µM
COc1c(C(C)=O)cc([N+](=O)[O-])c2ncccc12,H37Rv,,,,,inhibition,6.25 µg/mL,0%
CCOC(=O)c1cnc(C(C)C)[nH]1,H37Rv,,,,,inhibition,6.25 µg/mL,20%
CN1CCN(C(=S)S)CC1,H37Rv,,,resazurin,,MIC bound,,<6.25 µg/mL
Clc1ccc(CSc2ncn[nH]2)cc1,My 331/88,,,,,MIC,,500 µM
CCCCCCCCNCc1ccc(Cl)cc1,H37Ra,,,,,MIC,,<25 µg/mL
CCNc1cc2sc3cc(=[NH+]CC)c(C)cc-3nc2cc1C,H37Rv,,,BACTEC,,inhibition,12.5 µg/mL,58%
O=[N+]([O-])c1cccc2ccc(C3CCCCC3)nc12,H37Rv,,,,,inhibition,6.25 µg/mL,99%
NNC(=O)c1ccncc1,H37Rv,,,,,MIC,,0.05 µg/mL
Cc1nn(-c2ccccc2)c(=O)n2c(-n3c(C)nn(-c4ccccc4)c3=O)nnc12,H37Rv,,,BACTEC,,MIC bound,,>12.5 µg/mL
CCCCNC(CC(=O)OCC)c1cccc([N+](=O)[O-])c1,Sensitive strains,,,,,MIC,,25 µg/mL
CCCOc1c(C(C)=O)cc(N)c2nccc(CC)c12,H37Rv,,,,,inhibition,6.25 µg/mL,0%
CCCCCCCCCCCNCCNC1CCCC(C)C1C,,,,,,MIC,,25 µM
CN(C)c1ccc(/C=C/C/C=N/NC(=O)c2ccc(N)cc2)cc1,H37Rv,,,,,inhibition,12.5 µg/mL,56%
Oc1ccccc1CNCCCCCCCNCc1ccccc1O,H37Ra,,,,,MIC,,<25 µg/mL
COc1ccc(/C=N/Nc2nnc3c4cccnc4c4ccccc4c3n2)cc1OC,H37Rv,,,BACTEC,,MIC bound,,>12.5 µg/mL
CCOC(=O)c1cnc(C2CCCC2)[nH]1,H37Rv,,,,,MIC,,>6.25 µg/mL
CCc1ccnc2c(N)cc(C(C)=O)c(OC(C)C)c12,H37Rv,,,,,inhibition,6.25 µg/mL,0%
Cn1cnnc1SCc1ccccc1,My 331/88,,,,,MIC,,1000 µM
Cc1[nH][nH]c(=O)c1N=Nc1ccc(-c2n[nH]c(=O)n2-c2ccccc2)cc1,H37Rv,,,,,inhibition,12.5 µg/mL,0%
Nc1cccc2cccnc12,H37Rv,,,,,MIC,,>6.25 µg/mL
CC(=O)OC1(C#N)CC2OC1C1C2N1C(=O)OC(C)(C)C,H37Rv,,,BACTEC,,MIC bound,,>12.5 µg/mL
CC1CN(c2c(F)cc3c(=O)c(C(=O)O)cn(C4CC4)c3c2F)CC(C)N1,CSU11,,,,,MIC,,≤0.125 µg/mL

A second listing of 6 rows from above:

structure	strain or isolate	changes	cells	read by	setting	read-out	dose	value
CN(C)c1ccc(/C=C/C/C=N/NC(=O)c2ccc(N)cc2)cc1	H37Rv					inhibition	12.5 µg/mL	56%
CC(C)CC(C)NCCNC[C@]1(C)CCC[C@]2(C)c3ccc(C(C)C)cc3CC[C@@H]12						MIC		25 µM
CC1CN(c2c(F)cc3c(=O)c(C(=O)O)cn(C4CC4)c3c2F)CC(C)N1	CSU11					MIC		≤0.125 µg/mL
CC1=NN(C(=O)c2ccc(C)cc2)C(=O)C1N=Nc1ccccc1C(=O)O	H37Rv			BACTEC		inhibition	12.5 µg/mL	0%
CC(=O)NS(=O)(=O)c1ccc(N=Nc2c(C)nn(C(=O)c3cccnc3)c2-c2ccccc2)cc1	H37Rv			resazurin		MIC bound		>6.25 µg/mL
CC(=O)C1C(=O)C(=O)N(Cc2ccccc2)C1=O	H37Rv			resazurin		inhibition	6.25 µg/mL	5%

Conditions beyond the fields shown may differ between rows. An empty or dashed field is not shown. ECn: concentration that inhibits the pathogen or its effect by n%. Inhibition is in % at the dose shown (toxicity tests: loss of growth or viability).